Measured data: PubChem BioAssay AID504761 (Drosophila RNAi Screening Center, 2011)

Purpose: 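Fly genes whose silencing reduces dengue virus type 2 infection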 (primary screen)
Cells: D.Mel-2 cells from Drosophila
Reagents: long dsRNA against Drosophila genes
Conditions: infection with dengue virus type 2; dose and infection time not stated
Measured: 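Cells stained for dengue envelope protein and imaged; percent of infected cells per well on duplicate plates, ranked by infection, with stained nuclei counted for cell number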
Scale: infection score: higher = more virus-infected cells; cell count: higher = more cells in the well
Rule for the call: 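Low infection ranks in the two replicates (chance level up to 0.065) followed by a retest with a 1.5-fold or larger significant decrease, p below 0.05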
Meaning of the calls: active = confirmed: knock-down lowers infection; inactive = not picked or not confirmed
The screen tested about 22,000 reagents; shown is an unselected part of those with a known target gene and a result. In the full data, 116 (0.52%) got an active call. 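Calls depend on retest data that are not deposited; infection was ranked per plate without normalising between plates; the unit of the infection score is not given.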 Raw values are not corrected between plates. Reagents against one gene are numbered here. Reagent sequences are not shown. Not stated in the record: the amount of reagent, the time to read-out.

Target gene | reagent | infection score, replicate 1 | infection score, replicate 2 | cell count, replicate 1 | cell count, replicate 2 | activity call
CG13436 | 1 | 1.74 | 3.39 | 6041 | 6483 | inactive
Vta1 | 1 | 2.77 | 10.4 | 7341 | 5944 | inactive
Vta1 | 2 | 2.75 | 1.51 | 6045 | 6495 | inactive
eRF1 | 1 | 2.91 | 7.06 | 654 | 1729 | inactive
eRF1 | 2 | 30.9 | 9.96 | 4466 | 5633 | inactive
mab-21 | 1 | 3.32 | 3.6 | 5879 | 6140 | inactive
mab-21 | 2 | 5.47 | 3.04 | 4549 | 6156 | inactive
CG2812 | 1 | 9.26 | 18.5 | 6567 | 6233 | inactive
CG2812 | 2 | 15.9 | 12.5 | 4040 | 3055 | inactive
CG30196 | 1 | 8.03 | 4.05 | 6622 | 6377 | inactive
stol | 1 | 3.35 | 3.36 | 6359 | 6493 | inactive
CG8910 | 1 | 5.21 | 13.4 | 7159 | 3713 | inactive
CG8910 | 2 | 16.6 | 7.26 | 3955 | 2783 | inactive
CG32181 | 1 | 3.77 | 3.78 | 6634 | 6648 | inactive
CG32181 | 2 | 11.5 | 10.6 | 5720 | 6593 | inactive
CG15019 | 1 | 3.26 | 6.43 | 6251 | 5958 | inactive
Etl1 | 1 | 13.8 | 8.19 | 6160 | 5632 | inactive
mRpS31 | 1 | 14.2 | 13.2 | 5645 | 5764 | inactive
CG10418 | 1 | 2.06 | 21.2 | 6059 | 4705 | inactive
Uba2 | 1 | 2.17 | 0.78 | 5296 | 5355 | inactive
Syx8 | 1 | 6.11 | 8.03 | 5827 | 5669 | inactive
Syx8 | 2 | 1.79 | 10.6 | 6027 | 5343 | inactive
Syx8 | 3 | 16.8 | 13.5 | 6603 | 6862 | inactive
CG6106 | 1 | 37.6 | 7.45 | 5685 | 5569 | inactive
CG6106 | 2 | 7.92 | 12.8 | 2688 | 6505 | inactive
Adck5 | 1 | 0.72 | 0.71 | 6227 | 6295 | inactive
Lcch3 | 1 | 2.87 | 6.3 | 6831 | 6444 | inactive
Lcch3 | 2 | 3.15 | 12.5 | 6340 | 5998 | inactive
CG32532 | 1 | 4.28 | 4.51 | 6381 | 5582 | inactive
CG32532 | 2 | 1.95 | 4.27 | 6146 | 5529 | inactive
CG32532 | 3 | 1.32 | 4.05 | 5984 | 6489 | inactive
Dpp10 | 1 | 2.36 | 0.81 | 6022 | 5538 | inactive
Dpp10 | 2 | 2.99 | 6.13 | 6147 | 7060 | inactive
Mybbp1A | 1 | 6.43 | 9.87 | 6379 | 6993 | inactive
CG8100 | 1 | 2 | 2.17 | 5737 | 5947 | inactive
Wsck | 1 | 6.38 | 2.42 | 5969 | 5461 | inactive
Wsck | 2 | 13.4 | 9.3 | 5011 | 3539 | inactive
CG4021 | 1 | 8.51 | 14.3 | 7235 | 6695 | inactive
CG4021 | 2 | 11.8 | 7.6 | 6523 | 5660 | inactive
